Anti-infective test results gathered from many reports (values: NIAID ChemDB through PubChem).

All rows: tests in culture; agent: Hepatitis C virus; read by: replicon; measure: EC50

An empty or dashed field is not shown. Two numbers with a dash give a range or band. ECn: concentration that inhibits the pathogen or its effect by n%. Rows are shuffled and stem from different studies.

compound | strain | cell line | result
CCOc1nc(NCc2ccc(F)cc2)nc2ccc(-c3cccc(NS(=O)(=O)N(C)C)c3)nc12 |  |  | <0.1 µM
CNC(=O)c1c(-c2ccc(F)cc2)oc2cc(C)c(OC(C)C(=O)O)cc12 |  | Huh7 | >30 µM
CCCCNC(=O)N1CCN(c2nc(N)nc3ncc(-c4ccc(OC)c(OC)c4)nc23)CC1 | HCV replicon | Huh7 | <0.3 µM
CNC(=O)c1c(-c2ccc(F)cc2)oc2cc(N(C)S(C)(=O)=O)c(OCc3ccc(OC)cc3)cc12 |  | Huh7 | <1 µM
N#Cc1c(Nc2cccnc2)s[nH]c1=O |  | Huh7 | 10–50 µM
COC(=O)c1ccc2c(C3CCCCC3)c3n(c2c1)CCCc1cc(OCc2cc([N+](=O)[O-])ccc2F)ccc1-3 |  | Huh7 | 1–10 µM
CC(C)(C)OC(=O)N1[C@H](CO)CC(F)(F)[C@H]1n1cnc2c(N)ncnc21 |  |  | >10 µM
COc1ccc(-c2cnc3nc(N)nc(N4CCN(C(=O)Oc5ccc(Cl)cc5)CC4)c3n2)cc1OC | HCV replicon | Huh7 | <0.3 µM
COc1ccc(CNc2ccc3c(Nc4ccncc4F)nc(-c4cc(Cl)ccc4F)nc3n2)cc1 |  | Huh7 | 5.1 µM
COC(=O)N[C@H](C(=O)N1CCC[C@H]1c1ncc(-c2ccc(-c3ccc(-c4cnc([C@@H]5CCCN5C(=O)[C@@H](NC(=O)OC)C(C)C)[nH]4)cc3)cc2)[nH]1)C(C)C | Con1 | Huh7 | 0.000006 µM
CCOc1nc(NCc2ccc(CS(N)(=O)=O)cc2)nc2ccc(-c3ccc(F)cc3)nc12 |  |  | <0.1 µM
CC(C)(C)OC(=O)N1[C@H](CO)CC(F)(F)[C@@H]1n1cnc2c(N)ncnc21 |  |  | >10 µM
C[C@H](O)C(=O)Nc1ccc(-c2ccc3nc(NCc4ccc(S(N)(=O)=O)cc4)nc(NCC(F)(F)F)c3n2)cc1 |  |  | <0.1 µM
C=CC1CC1(NC(=O)[C@@H]1C[C@@H](Oc2cc(-c3ccccc3)nc3cc(OC)ccc23)CN1C(=O)[C@@H](NC(=O)OC1CCCC1)C(C)(C)C)C(=O)NS(=O)(=O)C1(C)CC1 | 1b | Huh7 | <0.05 µM
CC[C@@H]1C[C@]1(NC(=O)C1CC(Oc2cc(-c3csc(NC(C)C)n3)nc3c(Cl)c(OCCN4CCOCC4)ccc23)CN1C(=O)[C@@H](NC(=O)C1C[C@@H]2C[C@@H]2C1)C(C)(C)C)C(=O)O | 1b | Huh-luc | 0.002 µM
CO[C@@H]1[C@H](O)[C@@H](CO)O[C@H]1n1cc(C#CC2=CCCCC2)c(=O)[nH]c1=O |  | Huh7 | >300 µM
Nc1ccn([C@@H]2OC(CO)(CO)[C@@H](O)[C@H]2O)c(=O)n1 |  | Huh7 | >20 µM
COC(=O)c1ccc(Nc2s[nH]c(=O)c2C#N)cc1 |  | Huh7 | 10–50 µM
CC(C)(C)OC(=O)N1[C@H](CO)CC(F)(F)[C@H]1n1cnc2ncnc(N)c21 |  |  | >10 µM
COC(=O)c1ccc2c(C3CCCCC3)c3n(c2c1)CC(=O)N3Cc1ccccc1 |  | Huh7 | 1–10 µM
Fc1ccc(Cl)cc1-c1nc(Nc2ccncc2I)c2cccnc2n1 |  | Huh7 | 0.48 µM
COc1ccc2c(O[C@@H]3C[C@@H](C(=O)NC4(C(=O)NS(=O)(=O)C5(C6=CCCCC6)CC5)CC4)N(C(=O)[C@@H](NC(=O)OC(C)(C)C)C(C)(C)C)C3)cc(-c3ccccc3)nc2c1 | 1b | Huh7 | 0.5–5 µM
O=C(NS(=O)(=O)N1CCCC1)c1ccc2c(C3CCCCC3)c3n(c2c1)CC(C(=O)N1CCOCC1)=Cc1ccccc1-3 |  | Huh7 | 0.01–1 µM
C=CC1CC1(NC(=O)[C@@H]1C[C@@H](Oc2cc(-c3ccccc3)nc3cc(OC)ccc23)CN1C(=O)[C@@H](NC(=O)OC(C)(C)C)C(C)(C)C)C(=O)NS(=O)(=O)C1(C2=CCCCC2)CC1 | 1b | Huh7 | 0.05–0.5 µM
C#C[C@]1(CO)O[C@@H](n2ccc(N)nc2=O)[C@H](O)[C@@H]1O |  | Huh7 | >20 µM
N#Cc1c(Nc2ccc(Cl)cc2Cl)s[nH]c1=O |  | Huh7 | 10–50 µM
[N-]=[N+]=N[C@]1(CO)O[C@@H](n2ccc(N)nc2=O)[C@@H](O)[C@@H]1O |  |  | 0.171 µM
COC1[C@H](n2cc(C#CCN(C)C)c(=O)[nH]c2=O)O[C@H](CO)[C@H]1O |  | Huh7 | >300 µM
C=CC1C[C@@]1(NC(=O)[C@@H]1C[C@@H](Oc2cc(-c3ccccc3)nc3cc(OC)ccc23)CN1C(=O)[C@@H](NC(=O)COC)C(C)(C)C)C(=O)NS(=O)(=O)C1(Cc2ccccc2)CC1 | 1b | Huh7 | 0.05–0.5 µM
CCOc1nc(NCc2ccc(S(N)(=O)=O)cc2)nc2ncc(-c3ccc(F)cc3)nc12 | HCV replicon | Huh7 | <0.3 µM
CNC(=O)c1c(-c2ccc(F)cc2)oc2cc(N(C)S(C)(=O)=O)c(OCc3ccc(C(=O)O)cc3)cc12 |  | Huh7 | <10 µM
CO[C@@H]1[C@H](O)[C@@H](CO)O[C@H]1n1cc(C#Cc2ccc(C)cc2)c(=O)[nH]c1=O |  | Huh7 | >300 µM
CCCCCCCCCCCCNc1nc(=O)c2nc(Br)n(Cc3ccc(OC)cc3)c2c(=O)[nH]1 |  | Huh7 | >10 µM
N#Cc1c(Nc2ccc(Cl)c(C(F)(F)F)c2)s[nH]c1=O |  | Huh7 | 1–10 µM
COc1ccc2c(c1)CC(C(=O)N1CCOCC1)Cn1c-2c(C2CCCCC2)c2ccc(C(=O)O)cc21 |  | Huh7 | 0.01–1 µM
N#Cc1c(Nc2ccc(C(=O)O)cc2)s[nH]c1=O |  | Huh7 | >50 µM
N#C[C@]1(CO)O[C@@H](n2ccc(=O)[nH]c2=O)[C@H](O)[C@@H]1O |  | Huh7 | >20 µM
CNC(=O)c1c(-c2ccc(F)cc2)oc2cc(N(C)S(C)(=O)=O)c(OCc3ccccc3OC(F)F)cc12 |  | Huh7 | <1 µM
COC(=O)/C=C/c1ccc(NC(=O)C2(NC(=O)c3ccc4c(C5CCCCC5)c5n(c4c3)CC(C(=O)NCCN(C)C)N(C)c3nccnc3-5)CCCC2)cc1 |  | Huh7 | 0.01–1 µM
CCNc1nc(NCc2ccc(S(N)(=O)=O)cc2)nc2ccc(-c3ccc(F)cc3)nc12 |  |  | <0.1 µM
CO[C@@H]1[C@H](O)[C@@H](CO)O[C@H]1n1cc(/C=C/c2ccccc2)c(=O)[nH]c1=O |  | Huh7 | >300 µM
CN(C)CCNc1ccc2c(Nc3ccncc3F)nc(-c3cc(Cl)ccc3F)nc2n1 |  | Huh7 | >10 µM
CC(C)(C)OC(=O)N1[C@H](CO)CC(F)(F)[C@H]1n1cc(F)c(=O)[nH]c1=O |  |  | >10 µM
CCOCCN1CCN(c2nc(N)nc3ncc(-c4ccc(OC)c(OC)c4)nc23)CC1 | HCV replicon | Huh7 | <0.3 µM
CNC(=O)c1c(-c2ccc(Br)cc2)oc2ccc(OC)cc12 |  | Huh7 | <10 µM
C=CC[C@]1(CO)O[C@@H](n2ccc(N)nc2=O)[C@H](O)[C@@H]1O |  | Huh7 | >20 µM
CNC(=O)c1c(-c2ccc(F)c(Cl)c2)oc2ccc(OC)cc12 |  | Huh7 | <10 µM
C[C@@]1(O)[C@H](O)[C@@H](CO)O[C@H]1n1cnc2c(NCc3ccccc3)nc(N)nc21 | 1b | Huh7 | 24 µM
CC(C)(C)OC(=O)N1[C@H](CO)CC(F)(F)[C@@H]1n1cnc2c(Cl)ncnc21 |  |  | >10 µM
COc1c(-c2cccc3ccccc23)cnn([C@@H]2C[C@H]3C(=O)N[C@]4(C(=O)NS(=O)(=O)C5CC5)CC4/C=C\CCCCCC[C@H](NC(=O)OC4CCCC4)C(=O)N3C2)c1=O | 1b |  | 0.0004 µM
CN(C)c1cccc2cccc(Nc3s[nH]c(=O)c3C#N)c12 |  | Huh7 | >50 µM
CC(C)(C)OC(=O)N1[C@H](CO)CC(F)(F)[C@@H]1n1cnc2ncnc(Cl)c21 |  |  | >10 µM
Cc1cnccc1Nc1nc(-c2cc(Cl)ccc2F)nc2nc(N)ccc12 |  | Huh7 | 0.67 µM
CCOc1nc(NCc2ccc(F)cc2)nc2ncc(-c3ccc(F)cc3)nc12 | HCV replicon | Huh7 | <0.3 µM
CC(C)N(C(=O)C1=Cc2ccccc2-c2c(C3CCCCC3)c3ccc(C(=O)NS(=O)(=O)N(C)C)cc3n2C1)C(C)C |  | Huh7 | 0.01–1 µM
CC(C)N1CCC(NS(=O)(=O)c2cc(-c3ccc4nc(NCc5ccc(S(N)(=O)=O)cc5)nc(NCC(F)(F)F)c4n3)ccc2Cl)CC1 |  |  | <0.1 µM
N#Cc1c(Nc2ccccc2F)s[nH]c1=O |  | Huh7 | 10–50 µM
NC(=O)c1ccc(-c2ccc3nc(NCc4ccc(S(N)(=O)=O)cc4)nc(NCC(F)(F)F)c3n2)cc1 |  |  | <0.1 µM
COc1ccc(OC(=O)N2CCN(c3nc(N)nc4ncc(-c5ccc(OC)c(OC)c5)nc34)CC2)cc1 | HCV replicon | Huh7 | <0.3 µM
COc1ccc2c(O[C@@H]3C[C@@H](C(=O)NC4(C(=O)NS(=O)(=O)C5(Nc6ccccc6)CC5)CC4)N(C(=O)[C@@H](NC(=O)OC(C)(C)C)C(C)(C)C)C3)cc(-c3ccccc3)nc2c1 | 1b | Huh7 | 5–50 µM
CN(C)CCNC(=O)C1=Cc2ccccc2-c2c(C3CCCCC3)c3ccc(C(=O)NC4(C(=O)Nc5ccc6c(c5)cc(C(=O)O)n6C)CCCC4)cc3n2C1 |  | Huh7 | 0.01–1 µM
CCOc1nc(NCc2cc(F)c(F)c(F)c2)nc2ccc(-c3ccc(F)cc3)nc12 |  |  | <0.1 µM
CCCCCCCCCCCCCCCCNc1nc(=O)c2nc(Br)n(Cc3ccc(OC)cc3)c2c(=O)[nH]1 |  | Huh7 | <10 µM
N#Cc1c(Nc2ccc(C(F)(F)F)cn2)s[nH]c1=O |  | Huh7 | 10–50 µM
COc1ccc(C#Cc2cn([C@@H]3O[C@H](CO)[C@@H](O)[C@H]3OC)c(=O)[nH]c2=O)cc1 |  | Huh7 | >300 µM
CNC(=O)c1c(-c2ccc(F)cc2)oc2cc(N3CCOCC3)c(OCc3ccc(OC)cc3)cc12 |  | Huh7 | <1 µM
Fc1ccc(-c2ccc3nc(NCc4ccc(-c5csnn5)cc4)nc(NCC(F)(F)F)c3n2)cc1 |  |  | <0.1 µM
COc1ccc(Cn2c(Br)nc3c(=O)nc(NCc4ccccc4)[nH]c(=O)c32)cc1 |  | Huh7 | <10 µM
CCOc1nc(NCc2ccc(F)cc2)nc2ccc(-c3cccc(NS(C)(=O)=O)c3)nc12 |  |  | <0.1 µM
COc1ccc(-c2cnc3nc(N)nc(N4CCN(C(=O)c5cccs5)CC4)c3n2)cc1OC | HCV replicon | Huh7 | <0.3 µM

A second listing of 10 rows from above:

COc1ccc(-c2cnc3nc(N)nc(N4CCN(C(=O)c5cccs5)CC4)c3n2)cc1OC ; strain: HCV replicon ; cell line: Huh7 ; result: <0.3 µM
N#Cc1c(Nc2ccc(C(=O)O)cc2)s[nH]c1=O ; cell line: Huh7 ; result: >50 µM
COc1ccc(CNc2ccc3c(Nc4ccncc4F)nc(-c4cc(Cl)ccc4F)nc3n2)cc1 ; cell line: Huh7 ; result: 5.1 µM
CN(C)CCNC(=O)C1=Cc2ccccc2-c2c(C3CCCCC3)c3ccc(C(=O)NC4(C(=O)Nc5ccc6c(c5)cc(C(=O)O)n6C)CCCC4)cc3n2C1 ; cell line: Huh7 ; result: 0.01–1 µM
CNC(=O)c1c(-c2ccc(Br)cc2)oc2ccc(OC)cc12 ; cell line: Huh7 ; result: <10 µM
CCOc1nc(NCc2ccc(S(N)(=O)=O)cc2)nc2ncc(-c3ccc(F)cc3)nc12 ; strain: HCV replicon ; cell line: Huh7 ; result: <0.3 µM
N#Cc1c(Nc2ccc(Cl)cc2Cl)s[nH]c1=O ; cell line: Huh7 ; result: 10–50 µM
CC(C)(C)OC(=O)N1[C@H](CO)CC(F)(F)[C@@H]1n1cnc2c(Cl)ncnc21 ; result: >10 µM
CNC(=O)c1c(-c2ccc(F)c(Cl)c2)oc2ccc(OC)cc12 ; cell line: Huh7 ; result: <10 µM
Cc1cnccc1Nc1nc(-c2cc(Cl)ccc2F)nc2nc(N)ccc12 ; cell line: Huh7 ; result: 0.67 µM